Pooled drug test results. Numbers come from NIAID ChemDB, via PubChem.

Common to all: host cell toxicity; measure: CC50

An empty or dashed field is not shown.

SMILES	cells	method	result
CC(C)[C@@H](NC(=O)C[C@@H]1O[C@@H]1[C@H](Cc1ccccc1)NC(=O)[C@@H](NC(=O)CN1CCCC1)C(C)(C)S(C)(=O)=O)c1ccccc1	H9	-	>100 µM
COc1ccc(Sc2nc(N)nc3c2ncn3CCOCP(=O)(OCC(F)(F)F)OCC(F)(F)F)cc1	HB611	-	>100 µM
O=C(NCCOCCOCCN1C(=O)C=CC1=O)c1cc(C(=O)NCCOCCOCCN2C(=O)C=CC2=O)cc(C(=O)NCCOCCOCCN2C(=O)C=CC2=O)c1	PM1 (PHA stimulated)	-	0.33 µM
Nc1ncc2ncn(CCCO)c2n1	U-937	-	>100 µM
COc1ccccc1-c1c(OC)cc(NC(C)CCCNC(=O)OC(C)(C)C)c2nc(C(F)(F)F)cc(C)c12	RAW 264.7	-	>80.2 µg/mL
O=C1C=CC(=O)C1=C/C=C/c1ccc(Cl)cc1	HeLa S3	XTT	>10 µM
Cc1ccc(-c2nc(CNc3ccnc4cc(Cl)ccc34)[nH]c2CN2CCCC2)cc1	HMEC-1	MTT	3.658 µM
COc1ncnc2c1ncn2C(C)CO	PBL	-	>100 µM
CNC(=O)/C=C(\c1ccccc1)c1ccc2nc(N)c(-c3ccc(F)cc3C(F)(F)F)n2c1	H-HELA	-	>10 µg/mL
CC(C)C[C@@H]1NC(=O)[C@H](Cc2c[nH]c3ccccc23)NC(=O)[C@H](CCCN=C(N)N)NC(=O)[C@H](CCCCN)NC(=O)[C@H](C(C)C)NC(=O)[C@@H](CC(C)C)NC1=O	Lung carcinoma cells	MTT	>30 µM
CC(CO)n1cnc2c(N)ncnc21	U-937	-	>100 µM
N=c1cc2c(cn1-c1ccc([N+](=O)[O-])cc1)C(=O)c1ccccc1C2=O	J774A.1 macrophages	neutral red	19.48 µM
CC(C)C[C@@H]1NC(=O)[C@H](Cc2ccc(O)cc2)NC(=O)[C@@H](CCCCN)NC(=O)[C@H](CC(N)=O)NC(=O)[C@H](C(C)C)NC(=O)[C@@H](CC(C)C)NC1=O	Colorectal carcinoma	MTT	>30 µM
O=C(OC(Cc1ccc(O)c(O)c1)C(=O)O)c1cc(-c2ccc(O)c(O)c2)c2cc(O)c(O)cc2c1	HuT-78	-	>50 µM
C[C@H]1CO[C@@H]2CN3C=C(C(=O)NCc4ccncc4F)C(=O)C(=O)C3C(=O)N12	CEM-SS	XTT	>0.01 µM
N=c1cc2c(cn1-c1ccccc1Br)C(=O)c1ccccc1C2=O	J774A.1 macrophages	neutral red	31.24 µM
O=C1C=CC(=O)C1=Cc1cccs1	HeLa S3	XTT	>10 µM
Nc1ccn([C@@H]2CC[C@H](CO)O2)c(=O)n1	U-937	-	70 µM
N=c1cc2c(cn1-c1ccc(C(=O)O)cc1)C(=O)c1ccccc1C2=O	J774A.1 macrophages	neutral red	145 µM
NNC(=O)c1ccncc1	Colorectal carcinoma	MTT	>30 µM
CCCCCCCC/C=C\CCCCCCCOCCCOP(=O)(O)CO[C@H](CO)Cn1ccc(N)nc1=O	DAUDI	-	>1 µM
CC(=O)N[C@H](C(=O)N[C@@H](Cc1ccccc1)[C@H]1O[C@H]1CC(=O)N[C@@H](c1ccccc1)C(C)C)C(C)(C)S(C)(=O)=O	H9	-	>100 µM
CCOC(OCC)C1=NCCc2cc(OC)c(OC)cc21	HepG2	-	>20 µM
Cc1nc2c(OC(F)F)cccc2n1-c1ccc(C(=O)NC2CC2)s1	Dermal fibroblast	resazurin	>62 µM
N=C(N)c1ccnc(-c2cccc(-c3cc(C(=N)N)ccn3)c2)c1	L6 rat myoblasts	-	>150 µM
COc1c(C)c(C)c2[nH]c3ccccc3c2c1OC	NCI-H187	resazurin	18.4 µg/mL
Clc1ccc2c(NCc3ncc(-c4ccc(N5CCCC5)cc4)[nH]3)ccnc2c1	HMEC-1	MTT	2.426 µM
CCOC(=O)CCCCCOc1cccc(CN(C(=O)c2ccc(-c3cccc4ccccc34)cc2)C(C)C)c1	RAJI	-	>20 µM
CNC(=O)/C=C(\c1ccccc1)c1ccc2nc(N)c(-c3cc(F)ccc3F)n2c1	H-HELA	-	4.87 µg/mL
CCCCCCCC(=O)CCCCCC/C=C/[C@H](C(=O)N[C@@H](Cc1ccc(OCC=C(C)C)cc1)C(=O)O)[C@@](O)(CC(=O)O)C(=O)O	WST-8	-	>50 µM
CO/N=C(\N)c1cccc(COc2ccc(/C(N)=N/OC)cc2I)c1	L6 rat myoblasts	resazurin	127 µM
CC(C)N(Cc1cccc(OCCCCCC(=O)OC(=O)O)c1)C(=O)c1ccc(-c2c[nH]c3ccccc23)cc1	BJ	-	>20 µM
CC(C)C[C@@H]1NC(=O)[C@H](Cc2ccccc2)NC(=O)[C@@H](CCCCN)NC(=O)[C@H](CC(N)=O)NC(=O)[C@H](C(C)C)NC(=O)[C@@H](CC(C)C)NC1=O	Lung carcinoma cells	MTT	>30 µM
CC(CO)n1cnc2c(Cl)ncnc21	PBL	-	>100 µM
CC(C)N(Cc1cccc(OCCCCCC(=O)OC(=O)O)c1)C(=O)c1ccc(-c2cccc(Oc3ccccc3)c2)cc1	BJ	-	<13.5 µM
CC(O)Cn1cnc2cnc(N)nc21	U-937	-	>100 µM
CCN(CC)Cc1[nH]c(CNc2ccnc3cc(Cl)ccc23)nc1-c1ccccc1	HMEC-1	MTT	9.144 µM
COc1c2c(c(OC)c3ccccc13)CN(c1ccc(Cl)cc1)C(=N)C2	J774A.1 macrophages	neutral red	24.12 µM
O=C(O)C(O)c1ccccc1	CaSki Cells	-	>1000 µg/mL
Cc1ccnc2c1NC(=O)c1cccnc1N2C1CC1	A72	MTT	>4 µg/mL
Nc1nc2c(ncn2COC(CO)CO)c(=O)[nH]1	HELF	-	70 µM
Clc1ccc2c(NCc3nc(-c4ccccc4)c(CN4CCCC4)[nH]3)ccnc2c1	HMEC-1	MTT	8.661 µM
O=C(CCC(=O)N1CCCN(C(=O)CCC(=O)NCCOCCOCCN2C(=O)C=CC2=O)CCCN(C(=O)CCC(=O)NCCOCCOCCN2C(=O)C=CC2=O)CCC1)NCCOCCOCCN1C(=O)C=CC1=O	PM1 (PHA stimulated)	-	1.3 µM
Nc1ncnc2c1ncn2[C@H]1C=C[C@](OCP(=O)(O)O)(C2CC2)C1	T4	XTT / absorbance	90 µM
O=C1C=CC(=O)C1=Cc1ccco1	HeLa S3	XTT	5.4 µM
CC(C)C(NC(=O)C[C@@H]1O[C@@H]1[C@H](Cc1ccccc1)NC(=O)[C@H](CS(C)(=O)=O)NC(=O)c1ccc2ccccc2n1)C(C)C	H9	-	>100 µM
COc1ccc2[nH]c3c(Cc4ccc5[nH]c6c(C)c(C)c(OC)c(O)c6c5c4)c(C)c(OC)c(O)c3c2c1	NCI-H187	resazurin	19.2 µg/mL
CCOC(=O)CCCCCOc1cccc(CN(C(=O)c2ccc(-c3cc4ccccc4n3S(=O)(=O)c3ccccc3)cc2)C(C)C)c1	RAJI	-	>20 µM
Clc1ccc(-c2nc(CNc3ccnc4cc(Cl)ccc34)[nH]c2CN2CCCC2)cc1	HMEC-1	MTT	2.056 µM
C=C1[C@H]2C[C@@H]3N(CC[C@@]34c3cccc5c3N(C[C@H]3[C@H]6C[C@@H]7N(CC[C@@]78c7ccccc7N[C@@]538)C[C@H]6CC)[C@@H]14)C[C@H]2CC	HL-60	MTT	3.8 µM
Clc1ccc(-c2cnc(CNc3ccnc4cc(Cl)ccc34)[nH]2)cc1	HMEC-1	MTT	7.447 µM
CN[C@@H]1[C@H](O[C@@H]2OC[C@@H](O)[C@H](O)[C@H]2O)[C@@H](O)[C@H](O[C@H]2c3cc(C)c(C(=O)N[C@H](C)C(=O)O)c(O)c3-c3c(cc4c(c3O)C(=O)c3cc(OC)cc(O)c3C4=O)[C@@H]2O)O[C@@H]1C	B16-F10	-	>500 µg/mL
NC(=O)c1c(Cl)c(-c2cccnc2)n2c1CCCC2	CBLC	-	>30 µM
Fc1ccc(-c2cnc(CNc3ccnc4cc(Cl)ccc34)[nH]2)cc1	HMEC-1	MTT	9.921 µM
Cc1ccc(C=C2C(=O)C=CC2=O)cc1	HeLa S3	XTT	>10 µM
CCCCCCCCCCCCOCCCOP1(=O)CO[C@@H](Cn2ccc(N)nc2=O)CO1	BCBL-1	-	>1 µM
COc1cc(NC(C)CCCNC(=O)OC(C)(C)C)c2nc(C(F)(F)F)cc(C)c2c1-c1ccccc1C	RAW 264.7	-	>48 µg/mL
Nc1nc2c(ncn2C[C@@H]2CC[C@@H](P(=O)(O)O)O2)c(=O)[nH]1	HS68	-	<10 µg/mL
NC(=O)CCNC(=O)c1ccccc1SCc1ccc([N+](=O)[O-])o1	Macrophage	XTT	>50 µM
COc1ccc2c(c1)C[C@@H]1C[C@]1(C(=O)N1C[C@H]3CC[C@@H](C1)CN(S(=O)(=O)C(C)C)C3)Cn1c-2c(C2CCCCC2)c2ccc(C(=O)NS(=O)(=O)C(C)C)cc21	HCV replicon cells	resazurin / fluorescence	10 µM
CC(O)Cn1cnc2c(Cl)nc(N)nc21	PBL	-	>100 µM
COc1c2c(c(OC)c3ccccc13)CN(c1ccccc1Br)C(=N)C2	J774A.1 macrophages	neutral red	19.41 µM
O=C1C=CC(=O)C1=C/C=C/c1ccccc1	HeLa S3	XTT	>10 µM
N#Cc1cccc(COc2cc(=O)c3c(O)c(OCc4cccc(Cl)c4)ccc3o2)c1	Hs27	MTT	>50 µM
O=C1NN(c2ccc(Br)cc2)C(=O)C1Cc1ccc([N+](=O)[O-])o1	MDM	-	40 µM
CC(CO)n1cnc2c(Cl)nc(N)nc21	U-937	-	10 µM
O=C1C=CC(=O)C1=Cc1cccc(Br)c1	HeLa S3	XTT	>10 µM
O=c1cc(OCc2cc(Cl)cc(Cl)c2)oc2ccc(OCc3cccc(Cl)c3)c(O)c12	Hs27	MTT	>50 µM
CCCCCCCCCCCCCCCCOP(=O)(O)CO[C@H](CO)Cn1ccc(N)nc1=O	DAUDI	-	>1 µM
CC(C)C[C@@H]1NC(=O)[C@H](Cc2c[nH]c3ccccc23)NC(=O)[C@H](CCCCN)NC(=O)[C@H](CC(N)=O)NC(=O)[C@H](C(C)C)NC(=O)[C@@H](CC(C)C)NC1=O	Colorectal carcinoma	MTT	>30 µM
COc1ccc2c(c1)C[C@@H]1C[C@]1(C(=O)N1C[C@@H]3CC[C@@H](CN(CCCC4CCCCC4)C3)C1)Cn1c-2c(C2CCCCC2)c2ccc(C(=O)NS(=O)(=O)N(C)C)cc21	HCV replicon cells	resazurin / fluorescence	5 µM
COc1c2c(c(OC)c3ccccc13)CN(c1ccc(C)cc1)C(=N)C2	J774A.1 macrophages	neutral red	23.25 µM
COc1c(C)c(C)c2[nH]c3ccc(Cc4c(C)c(OC)c(O)c5c4[nH]c4ccccc45)cc3c2c1O	NCI-H187	resazurin	25.3 µg/mL
CCCCCCCCCCCCOCCCOP(=O)(O)CO[C@H](CO)Cn1ccc(N)nc1=O	BCBL-1	-	>1 µM
CNC(=O)/C=C(\c1ccccc1)c1ccc2nc(N)c(-c3ccccc3)n2c1	H-HELA	-	5.03 µg/mL
Cc1nnc(-c2cccc(-c3ccc(C(=O)N(Cc4cccc(OCCCCCC(=O)OC(=O)O)c4)C(C)C)cc3)c2)o1	RAJI	-	>20 µM
CCCCCCCCCCCCCCCCOP1(=O)CO[C@@H](Cn2ccc(N)nc2=O)CO1	DAUDI	-	>1 µM
CC(C)C[C@@H]1NC(=O)[C@H](Cc2c[nH]c3ccccc23)NC(=O)[C@@H](CO)NC(=O)[C@H](CC(N)=O)NC(=O)[C@H](C(C)C)NC(=O)[C@@H](CC(C)C)NC1=O	Lung carcinoma cells	MTT	>30 µM
Cc1cc(CCCOc2c(C)cc(-c3noc(C(F)(F)F)n3)cc2C)on1	OHIO HELA-I	-	30 µg/mL
NC(=O)CCNC(=O)c1ccccc1SCc1ccccc1	Monocyte macrophages	XTT	>100 µM
CC[C@@H]1CN2CC[C@@]34C5=C(C[C@]6(CN5c5ccccc53)C3=Nc5ccccc5[C@@]35CC[N+]3([O-])C[C@@H](CC)[C@@H]6C[C@@H]53)[C@H]1C[C@H]24	HL-60	MTT	22.33 µM
NNC(=O)c1ccncc1	J774A.1 macrophages	neutral red	>100 µM
Cc1ccc(-n2sc3ccccc3c2=O)cc1	MDM	-	>90 µM

Neighbouring rows are from separate reports. CCn: concentration that lowers growth or viability of the cells by n%.